Potato spindle tuber viroid, stem 26: variant abundance in plants

Data from the supplement of Wu et al. 2024, doi:10.1371/journal.ppat.1012142.

PSTVd intermediate strain, stem 26: wild type AGGGUACCCU, pool pattern AGGGUNNCNN; upper and lower strand joined, each 5' to 3', the first 5 letters being the upper strand.

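Three N. benthamiana plants were inoculated with the whole mutant pool. Progeny were sequenced from the inoculated region (day 5), the margin of the inoculated leaf (day 10) and systemic leaves (day 12).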

Values are reads per thousand in the sample; higher means more abundant, 0 means not found.
Each site shows the three plants.
"Pool" is the share in the plasmid pool used as inoculum, on the same scale.
The inoculated region was read from the minus strand, the other sites from the plus strand.
For reference, wild type rose from 44.9 per thousand in the pool to 297, 323, 447 (inoculated region), 793, 829, 846 (leaf margin) and 974, 853, 877 (systemic leaves).

sequence	pool	inoculated region	leaf margin	systemic leaves
AGGGUCUGAC	0.0329	0 / 0 / 0	0 / 0 / 0	0 / 1.81 / 0
AGGGUCUGCC	0.461	1.63 / 2.07 / 1.76	1.31 / 0 / 0.922	0 / 0 / 0
AGGGUGAACG	0.0329	0 / 0 / 0.0430	0 / 0 / 0	0 / 0 / 0
AGGGUGACAA	2.83	1.04 / 1.02 / 0.559	0.0223 / 0 / 0	0 / 0 / 0
AGGGUGACAC	2.99	1.89 / 2.28 / 2.06	1.00 / 0 / 0.833	0 / 0 / 0
AGGGUGACAG	3.06	0.945 / 0.761 / 0.774	0 / 0 / 0	0 / 0 / 0
AGGGUGACAU	4.33	1.87 / 1.97 / 1.46	0 / 0 / 0	0 / 0 / 0
AGGGUGACCA	2.66	1.11 / 0.998 / 0.688	0 / 0 / 0	0 / 0 / 0
AGGGUGACCC	0.197	0.662 / 1.23 / 1.03	0 / 0.0261 / 0.0298	0 / 0.171 / 0.149
AGGGUGACCG	2.60	1.02 / 0.945 / 0.645	0 / 0 / 0.0595	0 / 0 / 0
AGGGUGACCU	4.72	2.93 / 2.84 / 1.68	0.0223 / 0.0261 / 0.0298	0.0374 / 0 / 0
AGGGUGACGA	2.76	1.09 / 0.814 / 0.645	0.0445 / 0 / 0	0 / 0 / 0
AGGGUGACGC	2.80	2.39 / 2.34 / 1.81	1.11 / 0 / 0.922	0 / 0 / 0
AGGGUGACGG	5.07	2.08 / 3.05 / 1.63	0 / 0 / 0	0 / 0.0143 / 0
AGGGUGACGU	2.88	1.11 / 0.761 / 0.989	0 / 0 / 0.0298	0 / 0 / 0
AGGGUGACUA	3.50	2.53 / 3.07 / 2.45	0.979 / 0 / 0.952	0 / 0 / 0.0165
AGGGUGACUC	2.81	3.52 / 3.65 / 3.01	2.49 / 3.79 / 1.70	0.187 / 2.38 / 2.02
AGGGUGACUG	2.37	2.13 / 2.15 / 2.15	0.957 / 0 / 0.982	0 / 0 / 0
AGGGUGACUU	3.37	3.07 / 4.83 / 3.57	2.23 / 2.01 / 1.87	0.0374 / 0.941 / 0.0496
AGGGUGAGCA	0.0329	0 / 0.0263 / 0	0 / 0 / 0	0 / 0 / 0
AGGGUGAGCC	0.0329	0.851 / 1.76 / 1.20	1.20 / 0 / 0.0298	0 / 0 / 0
AGGGUGAUCC	0.0329	1.06 / 1.92 / 1.81	1.14 / 2.06 / 0.952	0.0187 / 1.07 / 1.09
AGGGUGCACA	0.0493	0.0236 / 0 / 0	0.0223 / 0 / 0	0 / 0 / 0
AGGGUGCACC	0.0329	0 / 0.0263 / 0	0 / 0 / 0	0 / 0 / 0
AGGGUGCACG	0.0329	0 / 0 / 0	0 / 0 / 0	0 / 0 / 0
AGGGUGCCAA	2.70	0.969 / 0.630 / 0.731	0 / 0 / 0	0 / 0 / 0
AGGGUGCCAC	2.88	1.98 / 2.13 / 2.06	0.913 / 0 / 0.744	0 / 0 / 0
AGGGUGCCAG	2.52	0.992 / 0.814 / 0.559	0 / 0 / 0	0 / 0 / 0
AGGGUGCCAU	2.78	1.04 / 0.578 / 0.731	0.0223 / 0.0261 / 0.0298	0 / 0 / 0
AGGGUGCCCA	2.98	0.851 / 0.788 / 0.946	0 / 0 / 0	0 / 0 / 0
AGGGUGCCCC	2.76	2.20 / 2.47 / 1.72	1.29 / 0 / 0.833	0 / 0 / 0
AGGGUGCCCG	2.70	1.09 / 0.683 / 0.774	0.0223 / 0 / 0.0298	0 / 0 / 0
AGGGUGCCCU	3.73	46.5 / 26.2 / 48.7	11.5 / 13.8 / 10.3	0.579 / 8.61 / 4.35
AGGGUGCCGA	2.73	1.18 / 0.709 / 0.473	0.0223 / 0 / 0.0298	0 / 0 / 0
AGGGUGCCGC	3.26	2.36 / 3.70 / 2.19	1.25 / 0.0261 / 1.07	0 / 0 / 1.01
AGGGUGCCGG	5.94	6.83 / 6.17 / 4.56	0 / 0.0523 / 0	0.168 / 0.0143 / 0

A selection of 2 entries from above:

| sequence | pool | inoculated region | leaf margin | systemic leaves |
|---|---|---|---|---|
| AGGGUGCCAC | 2.88 | 1.98 / 2.13 / 2.06 | 0.913 / 0 / 0.744 | 0 / 0 / 0 |
| AGGGUCUGAC | 0.0329 | 0 / 0 / 0 | 0 / 0 / 0 | 0 / 1.81 / 0 |

With 23,251-70,159 reads a sample, very low values are single reads.
Sequences that differ at fixed positions probably stem from PCR or sequencing errors, and defective variants can be carried along by functional ones.